Results taken from paper PMC9739877, “Discovery and Mechanistic Investigation of Piperazinone Phenylalanine Derivatives with Terminal Indole or Benzene Ring as Novel HIV-1 Capsid Modulators” (Molecules, 2022).

Assays:
HIV-2 (ROD) = experiment: Anti-HIV-2 (ROD) activity in MT-4 cells, MTT assay; format: cell-based; details: selectivity index CC50/EC50, HIV-2 ROD
Experimental: (§1) II. In vitro anti-HIV Assay in MT-4 Cells
(§2) Evaluation of the antiviral activity of the compounds against HIV in MT-4 cells was performed using the MTT assay as described below. Stock solutions (10 × final concentration) of test compounds were added in 25 µL volumes to two series of triplicate wells to allow simultaneous evaluation of their effects on mock- and HIV-infected cells at the beginning of each experiment. Serial 5-fold dilutions of test compounds were made directly in flat-bottomed 96-well microtiter trays using a Biomek 3000 robot (Beckman Instruments, Fullerton, CA). Untreated HIV- and mock-infected cell samples were included as controls. HIV stock (50 µL) at 100-300 CCID50 (50 % cell culture infectious doses) or culture medium was added to either the infected or mock-infected wells of the microtiter tray. Mock-infected cells were used to evaluate the effects of the test compound on uninfected cells to assess the test compounds' cytotoxicity. Exponentially growing MT-4 cells were centrifuged for 5 minutes at 220 g, and the supernatant was discarded. […]
(§3) cells/mL, and 50 µL volumes were transferred to the microtiter tray wells. Five days after infection, the viability of mock-and HIV-infected cells was examined spectrophotometrically using the MTT assay. The MTT assay is based on the reduction of yellow colored 3-(4,5-dimethylthiazol-2-yl)-2,5-diphenyltetrazolium bromide (MTT) (Acros Organics) by mitochondrial dehydrogenase activity in metabolically active cells to a blue-purple formazan that can be measured spectrophotometrically. The absorbances were read in an eight-channel computer-controlled photometer (Infinite M1000, Tecan), at two wavelengths (540 and 690 nm). All data were calculated using the median absorbance value of three wells. […]
(§4) was defined as the concentration of the test compound that reduced the absorbance (OD540) of the mock-infected control sample by 50%. The concentration achieving 50% protection against the cytopathic effect of the virus in infected cells was defined as the […]

HIV-1 (IIIB) = format: cell-based; details: selectivity index CC50/EC50, HIV-1 IIIB
Experimental: as §1, §2, §3, §4

Compound | SI ROD (HIV-2 (ROD)) | SI IIIB (HIV-1 (IIIB))
COc1ccc(N(C)C(=O)[C@H](Cc2ccccc2)NC(=O)CN2CCN(C(=O)Cc3c(C)[nH]c4ccccc34)CC2=O)cc1 [7a, (S)-N-(4-methoxyphenyl)-N-methyl-2-(2-(4-(2-(2-methyl-1H-indol-3-yl)acetyl)-2-oxopiperazin-1-yl)acetamido)-3-phenylpropanamide] | 13.90 | –
COc1ccc(N(C)C(=O)[C@H](Cc2ccccc2)NC(=O)CN2CCN(C(=O)Cc3c[nH]c4ccc(OC)cc34)CC2=O)cc1 [7b, (S)-2-(2-(4-(2-(5-methoxy-1H-indol-3-yl)acetyl)-2-oxopiperazin-1-yl)acetamido)-N-(4-methoxyphenyl)-N-methyl-3-phenylpropanamide] | 6.15 | 7.15
COc1ccc(N(C)C(=O)[C@H](Cc2ccccc2)NC(=O)CN2CCN(C(=O)Cc3c[nH]c4ccc(Br)cc34)CC2=O)cc1 [7c, (S)-2-(2-(4-(2-(5-bromo-1H-indol-3-yl)acetyl)-2-oxopiperazin-1-yl)acetamido)-N-(4-methoxyphenyl)-N-methyl-3-phenylpropanamide] | <1 | <1
COc1ccc(N(C)C(=O)[C@H](Cc2ccccc2)NC(=O)CN2CCN(C(=O)Cc3c[nH]c4ccccc34)CC2=O)cc1 [7d, (S)-2-(2-(4-(2-(1H-indol-3-yl)acetyl)-2-oxopiperazin-1-yl)acetamido)-N-(4-methoxyphenyl)-N-methyl-3-phenylpropanamide] | 22.99 | 7.51
COc1ccc(N(C)C(=O)[C@H](Cc2ccccc2)NC(=O)CN2CCN(C(=O)Cc3c[nH]c4ccc(O)cc34)CC2=O)cc1 [7e, (S)-2-(2-(4-(2-(5-hydroxy-1H-indol-3-yl)acetyl)-2-oxopiperazin-1-yl)acetamido)-N-(4-methoxyphenyl)-N-methyl-3-phenylpropanamide] | >1.12 | >1.06
COc1ccc(N(C)C(=O)[C@H](Cc2ccccc2)NC(=O)CN2CCN(C(=O)Cc3c[nH]c4ccc(F)cc34)CC2=O)cc1 [7f, (S)-2-(2-(4-(2-(5-fluoro-1H-indol-3-yl)acetyl)-2-oxopiperazin-1-yl)acetamido)-N-(4-methoxyphenyl)-N-methyl-3-phenylpropanamide] | 19.92 | 4.13
COc1ccc(N(C)C(=O)[C@H](Cc2ccccc2)NC(=O)CN2CCN(C(=O)c3ccc(NC(C)=O)cc3)CC2=O)cc1 [7g, (S)-2-(2-(4-(4-acetamidobenzoyl)-2-oxopiperazin-1-yl)acetamido)-N-(4-methoxyphenyl)-N-methyl-3-phenylpropanamide] | >1.16 | >1.05
COc1ccc(N(C)C(=O)[C@H](Cc2ccccc2)NC(=O)CN2CCN(C(=O)c3ccc(NS(C)(=O)=O)cc3)CC2=O)cc1 [7h, (S)-N-(4-methoxyphenyl)-N-methyl-2-(2-(4-(4-(methylsulfonamido)benzoyl)-2-oxopiperazin-1-yl)acetamido)-3-phenylpropanamide] | – | >1.05
COc1ccc(N(C)C(=O)[C@H](Cc2ccccc2)NC(=O)CN2CCN(C(=O)c3ccc(NC(=O)C4CC4)cc3)CC2=O)cc1 [7i, (S)-N-(4-(4-(2-((1-((4-methoxyphenyl)(methyl)amino)-1-oxo-3-phenylpropan-2-yl)amino)-2-oxoethyl)-3-oxopiperazine-1-carbonyl)phenyl)cyclopropanecarboxamide] | 11.15 | <1
COc1ccc(N(C)C(=O)[C@H](Cc2ccccc2)NC(=O)CN2CCN(C(=O)c3ccc(NC(=O)C(F)(F)F)cc3)CC2=O)cc1 [7j, (S)-N-(4-methoxyphenyl)-N-methyl-2-(2-(2-oxo-4-(4-(2,2,2-trifluoroacetamido)benzoyl)piperazin-1-yl)acetamido)-3-phenylpropanamide] | >13.08 | >1.24
COc1ccc(N(C)C(=O)[C@H](Cc2cc(F)cc(F)c2)NC(=O)CN2CCN(C(=O)Cc3c(C)[nH]c4ccccc34)CC2=O)cc1 [F2-7a, (S)-3-(3,5-difluorophenyl)-N-(4-methoxyphenyl)-N-methyl-2-(2-(4-(2-(2-methyl-1H-indol-3-yl)acetyl)-2-oxopiperazin-1-yl)acetamido)propenamide] | 3.91 | 3.69
COc1ccc(N(C)C(=O)[C@H](Cc2cc(F)cc(F)c2)NC(=O)CN2CCN(C(=O)Cc3c[nH]c4ccc(OC)cc34)CC2=O)cc1 [F2-7b, (S)-3-(3,5-difluorophenyl)-2-(2-(4-(2-(5-methoxy-1H-indol-3-yl)acetyl)-2-oxopiperazin-1-yl)acetamido)-N-(4-methoxyphenyl)-N-methylpropanamide] | <1 | <1
COc1ccc(N(C)C(=O)[C@H](Cc2cc(F)cc(F)c2)NC(=O)CN2CCN(C(=O)Cc3c[nH]c4ccc(Br)cc34)CC2=O)cc1 [F2-7c, (S)-2-(2-(4-(2-(5-bromo-1H-indol-3-yl)acetyl)-2-oxopiperazin-1-yl)acetamido)-3-(3,5-difluorophenyl)-N-(4-methoxyphenyl)-N-methylpropanamide] | <1 | <1
COc1ccc(N(C)C(=O)[C@H](Cc2cc(F)cc(F)c2)NC(=O)CN2CCN(C(=O)Cc3c[nH]c4ccccc34)CC2=O)cc1 [F2-7d, (S)-2-(2-(4-(2-(1H-indol-3-yl)acetyl)-2-oxopiperazin-1-yl)acetamido)-3-(3,5-difluorophenyl)-N-(4-methoxyphenyl)-N-methylpropanamide] | 3.28 | 1.97
COc1ccc(N(C)C(=O)[C@H](Cc2cc(F)cc(F)c2)NC(=O)CN2CCN(C(=O)Cc3c[nH]c4ccc(O)cc34)CC2=O)cc1 [F2-7e, (S)-3-(3,5-difluorophenyl)-2-(2-(4-(2-(5-hydroxy-1H-indol-3-yl)acetyl)-2-oxopiperazin-1-yl)acetamido)-N-(4-methoxyphenyl)-N-methylpropanamide] | ≤2.65 | <1
COc1ccc(N(C)C(=O)[C@H](Cc2cc(F)cc(F)c2)NC(=O)CN2CCN(C(=O)Cc3c[nH]c4ccc(F)cc34)CC2=O)cc1 [F2-7f, (S)-3-(3,5-difluorophenyl)-2-(2-(4-(2-(5-fluoro-1H-indol-3-yl)acetyl)-2-oxopiperazin-1-yl)acetamido)-N-(4-methoxyphenyl)-N-methylpropanamide] | 3.23 | 2.78
COc1ccc(N(C)C(=O)[C@H](Cc2cc(F)cc(F)c2)NC(=O)CN2CCN(C(=O)c3ccc(NC(C)=O)cc3)CC2=O)cc1 [F2-7g, (S)-2-(2-(4-(4-acetamidobenzoyl)-2-oxopiperazin-1-yl)acetamido)-3-(3,5-difluorophenyl)-N-(4-methoxyphenyl)-N-methylpropanamide] | 1.02 | 1.11
COc1ccc(N(C)C(=O)[C@H](Cc2cc(F)cc(F)c2)NC(=O)CN2CCN(C(=O)c3ccc(NS(C)(=O)=O)cc3)CC2=O)cc1 [F2-7h, (S)-3-(3,5-difluorophenyl)-N-(4-methoxyphenyl)-N-methyl-2-(2-(4-(4-(methylsulfonamido)benzoyl)-2-oxopiperazin-1-yl)acetamido)propenamide] | >1.04 | >1.18
COc1ccc(N(C)C(=O)[C@H](Cc2cc(F)cc(F)c2)NC(=O)CN2CCN(C(=O)c3ccc(NC(=O)C4CC4)cc3)CC2=O)cc1 [F2-7i, (S)-N-(4-(4-(2-((3-(3,5-difluorophenyl)-1-((4-methoxyphenyl)(methyl)amino)-1-oxopropan-2-yl)amino)-2-oxoethyl)-3-oxopiperazine-1-carbonyl)phenyl)cyclopropanecarboxamide] | 5.87 | 6.17
COc1ccc(N(C)C(=O)[C@H](Cc2cc(F)cc(F)c2)NC(=O)CN2CCN(C(=O)c3ccc(NC(=O)C(F)(F)F)cc3)CC2=O)cc1 [F2-7j, (S)-3-(3,5-difluorophenyl)-N-(4-methoxyphenyl)-N-methyl-2-(2-(2-oxo-4-(4-(2,2,2-trifluoroacetamido)benzoyl)piperazin-1-yl)acetamido)propenamide] | 9.09 | 10.95
